Source: article PMC11054274, “Dual Antitubercular and Antileishmanial Profiles of Quinoxaline Di-N-Oxides Containing an Amino Acidic Side Chain” (Pharmaceuticals, 2024)
Several values for one entry are separate records, joined by “and”; a condition that tells them apart may be missing. Identical values can stand only once.

Assays:
Assay type in all cases: cell-based
Conditions in all cases: SI = CC50 (J774 macrophages)/IC50
[1] = system: Leishmania amazonensis amastigotes; test: Intracellular amastigote assay in J774 macrophages, L. amazonensis
Description: (§1) We performed an intracellular amastigote assay on L. amazonensis and L. donovani according to a fluorometric method reported by us. To carry out the in vitro macrophage infections, 5 × 10^4 cells were cultured in RPMI-1640 medium and then were infected with 5 × 10^5 promastigotes. In the L. donovani assays, the plates were incubated for 48 h at 37 °C, while in the L. amazonensis assays, they were incubated at 33 °C for the first 24 h and then the temperature was increased to 37 °C for the next 24 h. After, the culture medium was removed and the cells were washed with buffered RPMI-HEPES at pH 7.4 several times in order to eliminate the non-internalized promastigotes. A total of 100 µL of fresh medium tempered at 37 °C was added to the infected cells, which then were exposed to 100 µL of the test compounds in RPMI-1640 at different concentrations (100, 50, 25, 12.5, 6.25, 3.12, 1.56 and 0.78 µg/mL in a final volume of 200 µL) for 48 h at 37 °C. The culture medium was removed by centrifugation at 3500 rpm for 5 min (Centrifuge 5403 Eppendorf) and a lysis solution (0.02% sodium dodecyl sulfate in RPMI-HEPES) was added. After 20 min, the treated cells were harvested (centrifugation at 3500 rpm for 5 min at 4 °C) and the supernatants were replaced by 200 μL of fresh Schneider’s culture medium. The plates were then incubated at 26 °C for another 3 days to allow for the transformation of viable amastigotes into promastigotes and proliferation. Afterwards, 20 μL/well of 2.5 mM resazurin was added and incubated for another 3 h. Finally, URF was measured and IC50 was estimated as described above. All tests were carried out in triplicate. Miltefosine was used as the reference drug.

[2] = system: Leishmania donovani amastigotes; test: Intracellular amastigote assay in J774 macrophages, L. donovani
Description: as §1

[3] = system: Leishmania amazonensis promastigotes; test: Promastigote susceptibility assay (resazurin), L. amazonensis
Description: (§2) The following species of Leishmania were used: L. donovani (MHOM/IN/80/DD8), which was purchased (ATCC, Manassas, VA, USA), and L. amazonensis (MHOM/Br/79/Maria), which was kindly provided by Prof. Alfredo Toraño (Instituto de Salud Carlos III, Madrid, Spain). Promastigotes were cultured in Schneider’s Insect Medium supplemented with 10% heat-inactivated Fetal Bovine Serum (FBS) (SIGMA-Merck, Madrid, Spain) and 1000 U/L of penicillin plus 100 mg/L of streptomycin in 25 mL culture flasks at 26 °C.
(§3) The activity of the compounds on Leishmania promastigotes was performed according to the method previously reported by us. Briefly, promastigotes (2.5 × 10^5 parasites/well) were cultured in 96-well plastic plates. The compounds were dissolved in dimethylsulfoxide (DMSO). Serial dilutions at 1:2 of the test compounds in fresh culture medium were performed (100, 50, 25, 12.5, 6.25, 3.12, 1.56 and 0.78 µg/mL) in a final volume of 200 µL; the solutions were then added to the parasite suspension. […] Finally, the Relative Fluorescence Unit (RFU) (535ex–590em nm wavelength) was determined in a fluorimeter (Infinite 200 Tecan i-Control). Growth inhibition (%) was calculated by 100—[(RFU treated wells—RFU signal-to-noise)/(RFU untreated—RFU signal-to-noise) × 100]. All tests were carried out in triplicate and the IC50 was calculated by probit analysis using SPSS 17.0 Statistics Software. […]

[4] = system: Leishmania donovani promastigotes; test: Promastigote susceptibility assay (resazurin), L. donovani
Description: as §2, §3

COC(=O)CNC(=O)c1c(-c2ccc(F)cc2)[n+]([O-])c2cc(C)ccc2[n+]1[O-] [Compound 4m, N-(6-Methyl-1,4-dioxide-3-(4-fluorophenyl)-quinoxaline-2-carbonyl)glycine methyl ester]
L. amazonensis amastigote selectivity index (SI) [1]: 6.11 and 6.1 | L. donovani amastigote selectivity index (SI) [2]: 1.6

COC(=O)CNC(=O)c1c(-c2cccc(Cl)c2)[n+]([O-])c2cc(OC)ccc2[n+]1[O-] [Compound 4g, N-(6-Methoxy-1,4-dioxide-3-(3-chlorophenyl)quinoxaline-2-carbonyl)glycine methyl ester]
L. amazonensis amastigote selectivity index (SI) [1]: 310.6 | L. donovani amastigote selectivity index (SI) [2]: 92.8

COC(=O)CNC(=O)c1c(-c2ccc(C(F)(F)F)cc2)[n+]([O-])c2cc(C)ccc2[n+]1[O-] [Compound 4l, N-(6-Methyl-1,4-dioxide-3-(4-trifluoromethylphenyl)quinoxaline-2-carbonyl)glycine methyl ester]
L. amazonensis promastigote selectivity index (SI) [3]: > 6.0 | L. donovani promastigote selectivity index (SI) [4]: > 6.0

N-(6-Methoxy-1,4-dioxide-3-(4-trifloromethylphenyl)quinoxaline-2-carbonyl)glycine methyl ester [Compound 4h]
L. amazonensis amastigote selectivity index (SI) [1]: 26.5 | L. donovani amastigote selectivity index (SI) [2]: 14.0

COC(=O)CNC(=O)c1c(-c2ccccc2)[n+]([O-])c2ccccc2[n+]1[O-] [Compound 4a, N-(1,4-Dioxide-3-phenylquinoxaline-2-carbonyl)glycine methyl ester]
L. amazonensis amastigote selectivity index (SI) [1]: 67.3

N-(6-Methoxy-1,4-dioxide-3-(4-florophenyl)quinoxaline-2-carbonyl)glycine methyl ester [Compound 4i]
L. amazonensis amastigote selectivity index (SI) [1]: 29.9 | L. donovani amastigote selectivity index (SI) [2]: 5.3

COC(=O)CNC(=O)c1c(-c2ccc(OC)cc2)[n+]([O-])c2ccccc2[n+]1[O-] [Compound 4b]
L. donovani promastigote selectivity index (SI) [4]: 6.0

COC(=O)CNC(=O)c1c(-c2ccccc2C)[n+]([O-])c2cc(OC)ccc2[n+]1[O-] [Compound 4k, N-(6-Methoxy-1,4-dioxide-3-(2-methylphenyl)quinoxaline-2-carbonyl)glycine methyl ester]
L. donovani amastigote selectivity index (SI) [2]: 4.6
